The text below walks through data of PubChem BioAssay AID256 (DTP/NCI, 2004).

SMILES strings stand for the structures. Toxic doses and inconclusive results are not listed.

For this experiment, the system named is CD2F1 mice, L1210 leukemia ip, survival T/C. Briefly: NCI In Vivo Anticancer Drug Screen. Data for tumor model L1210 Leukemia (intraperitoneal) in CD2F1 (CDF1) mice. Particulars: endpoint: median survival time, vehicle: saline, higher = longer survival. Put shortly: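 Activity against a transplanted murine tumor was judged by comparing the compound group with a vehicle group. The outcome in the treated animals was divided by that in the controls.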

Regarding `O=P1(N(CCCl)CCCl)NC(SCCS(=O)(=O)O)CCO1` (stereo not given), the T/C was 150 % of control (dose: 12.5 mg/kg/injection, schedule: Q01DX009 (ip)); 315 % of control (dose: 150.0 mg/kg/injection, schedule: Q01DX001 (ip)); 232 % of control (dose: 200.0 mg/kg/injection, schedule: Q01DX001 (ip)); 107 % of control (dose: 200.0 mg/kg/injection, schedule: Q01DX009 (ip)); 410 % of control (dose: 250.0 mg/kg/injection, schedule: Q01DX001 (ip)).
